Library screen at single concentrations

Mtb glucose medium: 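Whole-cell growth test on Mycobacterium tuberculosis, read after 3 days in glucose-containing 7H9 medium; the read-out is not stated. Concentration: 500 µM. The record gives no direction; compounds that gave an IC50 in retests scored well above the rest, so higher reads as more growth inhibition. About 18,000 compounds were tested under these conditions; 7.9% (about 1,400) showed 50% or more at least once.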
Mtb cholesterol medium: 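Growth of Mycobacterium tuberculosis over 4 days (cholesterol / DPPC medium with tyloxapol); the read-out is not stated. Concentration: 500 µM. Higher reads as more growth inhibition (inferred: compounds with an IC50 in retests scored well above the rest). Of about 18,000 compounds tested this way, about 900 (5%) reached 50% or more in at least one test.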

Results are given as percent effect. How 0% and 100% were set is not recorded. Most values in the screen are low, and negative values occur. This is part of a subset picked to be rich in strong results.

{"compound": "CN1C(=O)CCc2cc(C(=O)N3CCCC3)ccc21", "Mtb cholesterol medium": 15.64}
{"compound": "CCOc1ncnc2c1CN(CCOC)CC2", "Mtb glucose medium": -9.016}
{"compound": "CC(CNC(=O)c1cn2ccccc2n1)N1CCCC1", "stereo": "centres undefined", "Mtb glucose medium": 8.527}
{"compound": "CCN1CCN(CCCNC(=O)c2cnccn2)CC1", "Mtb glucose medium": -9.86}
{"compound": "COCc1noc(CCNC(=O)c2cccn2C)n1", "Mtb glucose medium": 5.032}
{"compound": "COc1cc(C(C)O)cc(OC)c1O", "stereo": "centres undefined", "Mtb cholesterol medium": -7.291}
{"compound": "OCCNC1CCCCC1", "Mtb glucose medium": -2.784}
{"compound": "NCc1cc2cccnc2cc1Br", "Mtb cholesterol medium": -4.415}
{"compound": "NCCc1ccc(Cl)s1", "Mtb cholesterol medium": 27.22}
{"compound": "CN(C)c1ccc(-c2[nH][nH]c(=O)c2CCN)cc1", "Mtb glucose medium": 31.04}
{"compound": "CCN1CCCC1CNC(=O)c1cccc(C)n1", "stereo": "centres undefined", "Mtb glucose medium": 56.08, "Mtb cholesterol medium": 1.458}
{"compound": "CCCN(CC1CCCO1)C(=O)c1ncc[nH]1", "stereo": "centres undefined", "Mtb glucose medium": 17.53}
{"compound": "CC(=O)c1cc(C(=O)N2CCCCC2)c(=O)[nH]c1C", "Mtb cholesterol medium": 1.434}
{"compound": "CCS(=O)(=O)CCCN", "Mtb cholesterol medium": -5.267}
{"compound": "COc1ccc(CSc2nnc(N)[nH]2)c(Cl)c1", "Mtb glucose medium": 36.95, "Mtb cholesterol medium": 37.34}
{"compound": "COc1ccc(C(=O)NC2CCN(C)CC2)c(OC)c1", "Mtb glucose medium": 2.264}
{"compound": "Cc1nc(CNC(=O)c2ccc3c(c2)N(C)CC3)no1", "Mtb cholesterol medium": 4.521}
{"compound": "CC(C)Oc1cc(N2C[C@@H](C)[C@@](C)(O)C2)nc(N)n1", "Mtb cholesterol medium": 5.194}
{"compound": "Cc1occc1[S+]([O-])CC(=O)c1ccc[nH]1", "stereo": "centres undefined", "Mtb glucose medium": 2.473}
{"compound": "O=C(c1cc(C2CC2)on1)N1CCC2(CCOCC2)C1", "Mtb glucose medium": 57.49, "Mtb cholesterol medium": 45.58}
{"compound": "O=C(NCC1CCS(=O)(=O)C1)c1cc2ccccc2[nH]1", "stereo": "centres undefined", "Mtb cholesterol medium": -6.287}
{"compound": "CNc1cc(CN(C)Cc2ccccc2)ccn1", "Mtb glucose medium": 61.14, "Mtb cholesterol medium": 67.6}
{"compound": "CCN(CC)C(=O)[C@@H]1C[C@@H](N)CN1C(=O)COC", "Mtb glucose medium": -1.392}
{"compound": "N#CCSc1ccccc1C(=O)NC1CCS(=O)(=O)C1", "stereo": "centres undefined", "Mtb glucose medium": 8.419}
{"compound": "CN(Cc1ccccc1)C(=O)CC1CCNC1", "stereo": "centres undefined", "Mtb glucose medium": 38.77}
{"compound": "O=C(COC(=O)c1ccc2ccccc2n1)NC1CC1", "Mtb glucose medium": 0.301}
{"compound": "CN(c1ccccc1C(N)=O)S(C)(=O)=O", "Mtb glucose medium": 4.696}
{"compound": "CCSc1cncc(N2CCC(O)CC2)n1", "Mtb glucose medium": 34.7}
{"compound": "Cc1cccc(-n2nnc(C(N)=O)c2N)c1C", "Mtb cholesterol medium": 2.618}
{"compound": "O=C1CN(C(=O)C2=Cc3cc(Cl)ccc3OC2)CCN1", "Mtb cholesterol medium": -3.883}
{"compound": "CN1CCN(c2cc(C#N)ccn2)CC1", "Mtb cholesterol medium": 10.81}
{"compound": "O=C1CCCN1CCCNS(=O)(=O)c1ccc(Br)s1", "Mtb glucose medium": 56.75}
{"compound": "CC(=O)c1ccc(C(C)(C)O)cc1", "Mtb glucose medium": 4.058}
{"compound": "Cc1cc(NC(=O)CCNC(=O)C2CCCC2)n(C)n1", "Mtb glucose medium": 11.17}
{"compound": "NC(=O)c1csc(C(=O)Nc2cnn(CC(F)F)c2)c1", "Mtb glucose medium": 22.8}
{"compound": "CCC(CO)N1CCN(c2nccnc2C#N)CC1", "stereo": "centres undefined", "Mtb cholesterol medium": 0.3442}
{"compound": "CN(C)C(=O)OC1CCNCC1", "Mtb glucose medium": -4.282}
{"compound": "O=C(c1ccc(N2CCOCC2)c(F)c1)N1CCCC1", "Mtb glucose medium": -0.3869}
{"compound": "CC(NC(=O)c1ccn(C2CCCC2)n1)c1ncon1", "stereo": "centres undefined", "Mtb glucose medium": 1.906}
{"compound": "CCCN1CCCC(CNC(=O)c2ccn(CC)n2)C1", "stereo": "centres undefined", "Mtb glucose medium": 2.422}

2 of the entries, repeated:

- CN(C)C(=O)OC1CCNCC1 : Mtb glucose medium: -4.282%
- CC(=O)c1ccc(C(C)(C)O)cc1 : Mtb glucose medium: 4.058%

Source: ChEMBL document CHEMBL3988442, “University of Dundee, Small-Polar-MMV Screening Library” (2021).